Sequences and labels used below:
B1:  (domain or fragment)
chain: VPSFEDVVDAIFPDSEA
B2: batCOV5-N3, N3 fragment (residues 391-427) of batCOV5 N protein, His-tagged (pull-down) (domain or fragment)
chain: PKQQRKKRVVQGSIPQRSAGVPSFEDVVDAIFPDSEA
B3: batCOV5-M, M protein of Pipistrellus bat coronavirus HKU5, tag-free (pull-down) (natural protein)
chain: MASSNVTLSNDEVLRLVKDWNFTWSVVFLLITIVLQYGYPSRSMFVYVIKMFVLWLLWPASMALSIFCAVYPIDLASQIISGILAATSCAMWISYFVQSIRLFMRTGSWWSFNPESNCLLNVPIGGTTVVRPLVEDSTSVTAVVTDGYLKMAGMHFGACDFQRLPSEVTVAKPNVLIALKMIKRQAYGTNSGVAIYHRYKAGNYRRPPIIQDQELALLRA

Assay in all cases: pull-down
Assay [1] addresses B3.
The target in assay [2] is batCOV5-M K150A, tag-free (pull-down) (Pipistrellus bat coronavirus HKU5, UniProt A3EXD6 1-220, K150A).
Assay [3] has as its target batCOV5-M K172A, tag-free (pull-down) (Pipistrellus bat coronavirus HKU5, UniProt A3EXD6 1-220, K172A).
Assay [4] deals with batCOV5-NFL, full-length N protein of Pipistrellus bat coronavirus HKU5, His-tagged (Pipistrellus bat coronavirus HKU5, UniProt A3EXD7 1-427).

For the molecule B1, in assay [1], the binding result is “binds”.

Take B2: the binding result in assay [2] and in assay [3] was “binds” throughout.

B3: the binding result in assay [4] is “binds”.

The values are drawn from PMC9982069 (PNAS Nexus, 2023).
